Measured values: US8349839B2, “Inhibitors of HIV replication” (Boehringer Ingelheim International GmbH, priority 2009, dated 2013)
The match of structure and compound is tentative.

Biological target: HIV reverse transcriptase (Human immunodeficiency virus type 1 group M subtype B, UniProt P04585)
Assay: HIV Reverse Transcriptase Assay (IC50)
Settings: assay of Example 67; 1 mM of ATP added to the reaction mixture
Method: Diluted solutions of stock solutions of compounds of Formula I in DMSO are prepared in assay buffer in Eppendorf tubes 16 h prior to their use in the biological assay, using a minimal supplementary volume of 75 μL of assay buffer in addition to the volume required in the assay. The samples are vortexed for 10 min at RT and incubated for 16 h at 4° C. The equilibrated solutions are centrifuged at 16 000 g for 5 min in a centrifuge equipped with an internal chiller, which is pre-equilibrated at 4° C., and the supernatant is collected. The portion of supernatant required for the serial dilutions in the biological assay is transferred to the compound dilution plate and a 75 μL portion of the remaining supernatant is transferred to a 1.4 mL tube (Micronic). A 25 μL volume of DMSO is promptly added and the sample is submitted for concentration determination by HPLC, along with the stock solution of the compound in DMSO as a standard for concentration determination analysis.
HIV Reverse Transcriptase Assay (IC50)
The assay used to measure inhibition of HIV reverse transcriptase is as described in WO 2006/034583, pages 52-53, incorporated herein by reference, except that 1 mM of ATP was added to the reaction mixture.

SMILES: CNc1ccc(-c2nc(=O)n(CC(=O)N3CCCC3)c3c2oc2ncc(-c4cnn(C)c4)cc23)cn1
- IC50: 70 nM
